Measured values from several laboratories, pooled; numbers as filed in NIAID ChemDB.

Shared fields: whole-cell or culture tests

Percent inhibition refers to the dose given; in toxicity tests it is the harm to the cells.

SMILES | strain or isolate | tested at | read-out | read by | organism | result
CNCC1CCN(c2c(F)cc3c(=O)c(C(=O)O)cn(C4CC4)c3c2C(F)(F)F)C1 | ATCC 6841 |  | MIC |  | Mycobacterium fortuitum | 8 µg/mL
CC1COc2c(N3CCN(C)CC3)c(F)cc3c(=O)c(C(=O)O)cn1c23 | 37 strains |  | MIC90 |  | Mycoplasma hominis | 1 µg/mL
O=C(O)c1cc(C(F)(F)F)cc2c(=O)nc(N3CCN(CC4CCCCC4)CC3)sc12 | 2005-0524 |  | MIC99 | resazurin | Mycobacterium abscessus | >100 µg/mL
C/C=C(C)/C=C(\C)[C@@H](O)[C@H](O)[C@H]1OC(=O)/C=C/c2csc(n2)[C@H](C)[C@@H](O)C[C@H](O)/C=C/C=C\C[C@H](O)[C@H]1O |  |  | MIC | visual reading | Mycobacterium luteus | 32 µg/mL
NC[C@@H]1O[C@H](O[C@H]2[C@@H](O)[C@H](O[C@@H]3[C@@H](O)[C@H](N)C[C@H](N)[C@H]3O[C@H]3O[C@H](CO)[C@@H](O)[C@H](O)[C@H]3N)O[C@@H]2CO)[C@H](N)[C@@H](O)[C@@H]1O | ATCC 25291 |  | Median MIC |  | Mycobacterium avium | 16 µg/mL
CN1C(=O)C2(C3=C(CN2C)C(=O)c2ccccc2C3=O)c2ccccc21 |  |  | MIC | agar diffusion | Mycobacterium luteus | 125 µg/mL
C[C@H]1COC2(CCN(c3nc(=O)c4cc(C(F)(F)F)cc([N+](=O)[O-])c4s3)CC2)O1 | ATCC 927 |  | MIC | resazurin / fluorescence | Mycobacterium marinum | 0.037 µg/mL
CC1CN(c2cc3c(cc2F)c(=O)c(C(=O)O)cn3C2CC2)CCN1 | BCG-CX1 (D94N) |  | MIC |  | Mycobacterium bovis | 5.6 µg/mL
Cc1nn(-c2ccccc2)c2c1C(c1cn(-c3ccccc3)nc1-c1ccc(Cl)cc1)C1=C(NC(C)(c3cc(O)c(Cl)c(O)c3)NC1=O)O2 | NCIM 2240 | 1 mg/mL | zone | agar diffusion / agar | Mycobacterium phlei | 6.5 mm
NNC(=O)c1ccncc1 | JLS |  | MIC |  | Mycobacterium spp. | 0.02–0.1 µg/mL
CN[C@@H]1[C@@H](O[C@H]2O[C@H](CO)[C@@H](N)[C@H](O)[C@H]2O)OC2C[C@@H](N)[C@@H](O[C@H]3[C@H](OC4O[C@H](CO)[C@@H](OC5O[C@@H](CN)[C@@H](O)[C@H](O)[C@H]5N)[C@H]4O)[C@@H](O)[C@H](N)C[C@@H]3N)OC2[C@@H]1O | L948 |  | MIC | broth dilution | Mycobacterium abscessus | 2 µg/mL
CCN1CCN(c2c(F)cc3c(=O)c(C(=O)O)cn(-c4ccc(F)cc4F)c3c2F)CC1 | ATCC 6841 |  | MIC |  | Mycobacterium fortuitum | 1 µg/mL
CN[C@@H]1[C@@H](O[C@H]2O[C@H](CO)[C@@H](N)[C@H](O)[C@H]2O)OC2C[C@@H](N)[C@@H](O[C@H]3[C@H](OC4OC[C@@H](O)[C@H]4O)[C@@H](O)[C@H](N)C[C@@H]3N)OC2[C@@H]1O | L948 |  | MIC | broth dilution | Mycobacterium abscessus | 4 µg/mL
COc1ccc(-c2nn(-c3ccccc3)cc2C2C3=C(NC(C)(c4cc(O)c(I)cc4Cl)NC3=O)Oc3c2c(C)nn3-c2ccccc2)cc1 | NCIM 5138 | 1 mg/mL | zone | agar diffusion / agar | Mycobacterium smegmatis | 12 mm
CN(C)c1cc(NC(=O)CNC(C)(C)C)c(O)c2c1C[C@H]1C[C@H]3[C@H](N(C)C)C(=O)C(C(N)=O)=C(O)[C@@]3(O)C(=O)C1=C2O | X7 |  | MIC | broth dilution | Mycobacterium massiliense | 1 µg/mL
C[C@H]1COC2(CCN(c3nc(=O)c4cc(C(F)(F)F)cc(C(=O)O)c4s3)CC2)O1 | 2005-0484 |  | MIC99 | resazurin | Mycobacterium massiliense | >100 µg/mL
Cc1nn(-c2ccccc2)c2c1C(c1cn(-c3ccccc3)nc1-c1ccc(F)cc1)C1=C(NC(C)(c3cc(O)c(I)cc3Cl)NC1=O)O2 | NCIM 5138 | 1 mg/mL | zone | agar diffusion / agar | Mycobacterium smegmatis | 12 mm
Nc1ccc(C(=O)O)c(O)c1 | ATCC 25291 |  | Median MIC |  | Mycobacterium avium | 64 µg/mL
Cc1nn(-c2ccccc2)c2c1C(c1cn(-c3ccccc3)nc1-c1ccc(Cl)cc1)C1=C(NC(C)(c3cc(O)ccc3Cl)NC1=O)O2 | NCIM 2240 |  | MIC | agar diffusion / agar | Mycobacterium phlei | 100 µg/mL
O=C(O)c1cn(-c2ccc(F)cc2F)c2c(F)c(N3CCNCC3)c(F)cc2c1=O | ATCC 6841 |  | MIC |  | Mycobacterium fortuitum | 0.5 µg/mL
CCc1cc(C(N)=S)ccn1 | Serovar 8 | 5 µg/mL | inhibition |  | Mycobacterium avium intracellulare | 87%
CC[C@H]1OC(=O)[C@H](C)[C@@H](O[C@H]2C[C@@](C)(OC)[C@@H](O)[C@H](C)O2)[C@H](C)[C@@H](O[C@@H]2O[C@H](C)C[C@H](N(C)C)[C@H]2O)[C@](C)(OC)C[C@@H](C)C(=O)[C@H](C)[C@@H](O)[C@]1(C)O | ATCC 25291 |  | Median MIC |  | Mycobacterium avium | 5 µg/mL
CC(=O)N1C(=O)C2(C3=C(CN2C)C(=O)c2ccccc2C3=O)c2ccccc21 |  | 50 µg/mL | zone | agar diffusion | Mycobacterium luteus | 22 mm
CNCC1CCN(c2c(F)cc3c(=O)c(C(=O)O)cn(C4CC4)c3c2OC)C1 | ATCC 6841 |  | MIC |  | Mycobacterium fortuitum | ≤0.03 µg/mL
CN[C@@H]1[C@@H](O[C@H]2O[C@H](CO)[C@@H](N)[C@H](O)[C@H]2O)OC2C[C@@H](N)[C@@H](O[C@H]3[C@H](O)[C@@H](O)[C@H](NC(=O)C(O)CCN)C[C@@H]3N)OC2[C@@H]1O | L948 |  | MIC | broth dilution | Mycobacterium abscessus | 2 µg/mL
CO[C@H]1/C=C/O[C@@]2(C)Oc3c(C)c(O)c4c(O)c(c(/C=N/N5CCN(C)CC5)c(O)c4c3C2=O)NC(=O)/C(C)=C\C=C\[C@H](C)[C@H](O)[C@@H](C)[C@@H](O)[C@@H](C)[C@H](OC(C)=O)[C@@H]1C |  |  | MIC | visual reading | Mycobacterium luteus | 0.01 µg/mL
CCC1CN(c2c(F)cc3c(=O)c(C(=O)O)cn(C4CC4)c3c2OC)CCN1 | BCG-CX2 (A90V D94N) |  | MIC |  | Mycobacterium bovis | 2 µg/mL
CN(C)[C@@H]1C(=O)C(C(N)=O)=C(O)[C@@]2(O)C(=O)C3=C(O)c4c(O)cccc4[C@@](C)(O)[C@H]3C[C@@H]12 | 34 strains |  | MIC90 |  | Mycoplasma hominis | 1 µg/mL
C/C=C(C)\C=C(/C)[C@@H](O)[C@H](C)[C@@H](O)[C@@H]1OC(=O)/C(CCCCCC)=C/c2csc(n2)[C@H](C)[C@@H](O)C[C@H](O)/C=C/C=C\C[C@@H]1O |  |  | MIC | visual reading | Mycobacterium luteus | 32 µg/mL
CN[C@@H]1[C@@H](O[C@H]2O[C@H](CO)[C@@H](N)[C@H](O)[C@H]2O)OC2C[C@@H](N)[C@@H](O[C@H]3[C@H](F)[C@@H](O)[C@H](N)C[C@@H]3N)OC2[C@@H]1O | L948 |  | MIC | broth dilution | Mycobacterium abscessus | 1 µg/mL
CO[C@H]1/C=C/O[C@@]2(C)Oc3c(C)c(O)c4c(O)c(c5c(c4c3C2=O)NC2(CCN(CC(C)C)CC2)N=5)=NC(=O)/C(C)=C\C=C\[C@H](C)[C@H](O)[C@@H](C)[C@@H](O)[C@@H](C)[C@H](OC(C)=O)[C@@H]1C | ATCC 25291 |  | Mean MIC |  | Mycobacterium avium | >0.53 µg/mL
CC1CN(c2c(F)cc3c(=O)c(C(=O)O)cn(C4CC4)c3c2Br)CCN1 | BCG-CX1 (D94N) |  | MIC |  | Mycobacterium bovis | 0.76 µg/mL
N[C@@H]1CONC1=O | ATCC 25291 |  | Median MIC |  | Mycobacterium avium | 37.5 µg/mL
CN[C@@H]1[C@@H](O[C@H]2O[C@H](CO)[C@@H](N)[C@H](O)[C@H]2O)O[C@H]2C[C@@H](N)C(O[C@H]3[C@H](O)[C@@H](O)[C@H](N)C[C@@H]3N)O[C@@H]2[C@@H]1O | L948 |  | MIC | broth dilution | Mycobacterium abscessus | 2 µg/mL
CCCCN1C(=O)C2(C3=C(CN2C)C(=O)c2ccccc2C3=O)c2ccccc21 |  | 50 µg/mL | zone | agar diffusion | Mycobacterium luteus | 13 mm
CC1CN(c2c(F)cc3c(=O)c(C(=O)O)cn(C4CC4)c3c2Cl)CCN1 | ATCC 6841 |  | MIC |  | Mycobacterium fortuitum | 0.06 µg/mL
O=C(O)c1cn(C2CC2)c2cc(N3CCNCC3)c(F)cc2c1=O |  |  | MIC | agar diffusion | Mycobacterium luteus | >100 µg/mL
CC1CNCCN1S(=O)(=O)c1cccc2cnccc12 | BCG |  | EC50 |  | Mycobacterium bovis | <20 µg/mL
NC1CCN(c2c(F)cc3c(=O)c(C(=O)O)cn(C4CC4)c3c2F)C1 | ATCC 6841 |  | MIC |  | Mycobacterium fortuitum | 0.06 µg/mL
CO[C@H]1/C=C/O[C@@]2(C)Oc3c(C)c(O)c4c(O)c(c(N5CCN(Cc6c(C)cc(C)cc6C)CC5)c(O)c4c3C2=O)NC(=O)/C(C)=C\C=C\[C@H](C)[C@H](O)[C@@H](C)[C@@H](O)[C@@H](C)[C@H](OC(C)=O)[C@@H]1C | 9141 |  | MBC |  | Mycobacterium avium | 4 µg/mL

Repeating the final 3 entries:

{"SMILES": "CC1CNCCN1S(=O)(=O)c1cccc2cnccc12", "strain or isolate": "BCG", "read-out": "EC50", "organism": "Mycobacterium bovis", "result": "<20 µg/mL"}
{"SMILES": "NC1CCN(c2c(F)cc3c(=O)c(C(=O)O)cn(C4CC4)c3c2F)C1", "strain or isolate": "ATCC 6841", "read-out": "MIC", "organism": "Mycobacterium fortuitum", "result": "0.06 µg/mL"}
{"SMILES": "CO[C@H]1/C=C/O[C@@]2(C)Oc3c(C)c(O)c4c(O)c(c(N5CCN(Cc6c(C)cc(C)cc6C)CC5)c(O)c4c3C2=O)NC(=O)/C(C)=C\\C=C\\[C@H](C)[C@H](O)[C@@H](C)[C@@H](O)[C@@H](C)[C@H](OC(C)=O)[C@@H]1C", "strain or isolate": "9141", "read-out": "MBC", "organism": "Mycobacterium avium", "result": "4 µg/mL"}

Zones are inhibition diameters on agar. An empty or dashed field is not shown. MIC50, MIC90 and the like: level of inhibition, or share of isolates inhibited. ECn is the concentration giving n% inhibition of infection, replication or growth. a–b is a range or a potency band. Neighbouring rows are from separate reports.